{
  "source": "patent US20110311550A1",
  "about": "“Agents for hcv treatment” (published 2011)",
  "key": {"[1]": {"molecular_target": "E1E2 (Env) of HCV isolate UKN5.15.7 (genotype 5) on HCVpp (hepatitis C virus, isolate UKN5.15.7)", "test": "cell-based or functional assay"}, "[2]": {"molecular_target": "VSV (control pseudotype virus envelope)", "test": "cell-based or functional assay"}, "[3]": {"molecular_target": "E1E2 (Env) of HCV isolate UKN2B1.1 (genotype 2b) on HCVpp (hepatitis C virus, isolate UKN2B1.1)", "test": "cell-based or functional assay"}, "[4]": {"molecular_target": "E1E2 (Env) of HCV isolate H (genotype 1a) on HCVpp (hepatitis C virus, isolate H)", "test": "cell-based or functional assay"}, "[5]": {"molecular_target": "E1E2 (Env) of HCV isolate OH8 (genotype 1b) on HCVpp (hepatitis C virus, isolate OH8)", "test": "cell-based or functional assay"}, "[6]": {"molecular_target": "E1E2 (Env) of HCV isolate UKN1B12.16 (genotype 1b) on HCVpp (hepatitis C virus, isolate UKN1B12.16)", "test": "cell-based or functional assay"}, "[7]": {"molecular_target": "E1E2 (Env) of HCV isolate UKN2A1.2 (genotype 2a) on HCVpp (hepatitis C virus, isolate UKN2A1.2)", "test": "cell-based or functional assay"}, "[8]": {"molecular_target": "E1E2 (Env) of HCV isolate UKN4.21.16 (genotype 4) on HCVpp (hepatitis C virus, isolate UKN4.21.16)", "test": "cell-based or functional assay"}, "[9]": {"molecular_target": "E1E2 (Env) of HCV isolate J6 (genotype 2a) on HCVpp (hepatitis C virus, isolate J6) (UniProt P26660)", "test": "cell-based or functional assay"}, "[10]": {"molecular_target": "HCV E1E2 antigen, isolate CH35 (hepatitis C virus, isolate CH35)", "test": "ELISA, IgG (1 ug/mL, positive control) on E1E2 antigen"}, "[11]": {"molecular_target": "HCV E1E2 antigen, isolate UKN3A1.28c (hepatitis C virus, isolate UKN3A1.28c)", "test": "ELISA, IgG (1 ug/mL, positive control) on E1E2 antigen"}, "[12]": {"molecular_target": "HCV E1E2 antigen, isolate OH8 (hepatitis C virus, isolate OH8)", "test": "ELISA, IgG (1 ug/mL, positive control) on E1E2 antigen"}, "[13]": {"molecular_target": "HCV E1E2 antigen, isolate UKN4.21.16 (hepatitis C virus, isolate UKN4.21.16)", "test": "ELISA, IgG (1 ug/mL, positive control) on E1E2 antigen"}, "[14]": {"molecular_target": "HCV E1E2 antigen, isolate UKN1B12.16 (hepatitis C virus, isolate UKN1B12.16)", "test": "ELISA, IgG (1 ug/mL, positive control) on E1E2 antigen"}, "[15]": {"molecular_target": "HCV E1E2 antigen, isolate UKN2B1.1 (hepatitis C virus, isolate UKN2B1.1)", "test": "ELISA, IgG (1 ug/mL, positive control) on E1E2 antigen"}, "[16]": {"molecular_target": "HCV E1E2 antigen, isolate UKN6.5.8 (hepatitis C virus, isolate UKN6.5.8)", "test": "ELISA, IgG (1 ug/mL, positive control) on E1E2 antigen"}, "[17]": {"molecular_target": "HCV E1E2 antigen, isolate UKN5.15.7 (hepatitis C virus, isolate UKN5.15.7)", "test": "ELISA, IgG (1 ug/mL, positive control) on E1E2 antigen"}},
  "data": [
    {"substance": "MAb AR3A (antibody)", "values": [
      {"measurement": "Neutralizing activity (IC50) on HCVpp", "setting": "[1]", "value": 1, "unit": "µg/mL"},
      {"measurement": "Neutralizing activity (IC50) on control pseudotype virus", "setting": "[2]", "value": "> 50", "unit": "µg/mL"},
      {"measurement": "Neutralizing activity (IC50) on HCVpp", "setting": "[3]", "value": 10, "unit": "µg/mL"},
      {"measurement": "Neutralizing activity (IC50) on HCVpp", "setting": "[4]", "value": 1, "unit": "µg/mL"},
      {"measurement": "Neutralizing activity (IC50) on HCVpp", "setting": "[5]", "value": 5, "unit": "µg/mL"},
      {"measurement": "Neutralizing activity (IC50) on HCVpp", "setting": "[6]", "value": 1, "unit": "µg/mL"},
      {"measurement": "Neutralizing activity (IC50) on HCVpp", "setting": "[7]", "value": 10, "unit": "µg/mL"},
      {"measurement": "Neutralizing activity (IC50) on HCVpp", "setting": "[8]", "value": 1, "unit": "µg/mL"},
      {"measurement": "Neutralizing activity (IC50) on HCVpp", "setting": "[9]", "value": 10, "unit": "µg/mL"},
      {"measurement": "OD 450 nm", "setting": "[10]", "value": 1.48, "unit": "OD 450 nm"},
      {"measurement": "OD 450 nm", "setting": "[11]", "value": 1.31, "unit": "OD 450 nm"},
      {"measurement": "OD 450 nm", "setting": "[12]", "value": 1.83, "unit": "OD 450 nm"},
      {"measurement": "OD 450 nm", "setting": "[13]", "value": 1.77, "unit": "OD 450 nm"},
      {"measurement": "OD 450 nm", "setting": "[14]", "value": 1.81, "unit": "OD 450 nm"},
      {"measurement": "OD 450 nm", "setting": "[15]", "value": 1.09, "unit": "OD 450 nm"},
      {"measurement": "OD 450 nm", "setting": "[16]", "value": 1.33, "unit": "OD 450 nm"},
      {"measurement": "OD 450 nm", "setting": "[17]", "value": 0.87, "unit": "OD 450 nm"}
    ]}
  ]
}
